Assay results from patent US20130039943A1, “NOVEL METHOD” (priority 2010, published 2013).
Several values for one entry are separate records, joined by “and”; a condition that tells them apart may be missing. Identical values can stand only once. Marks after values point to notes of the source that are not given here.

How the values were obtained:
Assay type in all cases: cell-based
Hepatitis A Virus (HAV) = test system: Hepatitis A Virus (HAV)
[1] = test system: Influenza virus produced on MDCK cells
[2] = test system: Porcine Pseudorabies Virus (PRV)
[3] = test system: Influenza virus Wisconsin A strain produced on MDCK cells
[4] = test system: Murine Leukaemia Virus (MuLV)
[5] = test system: Influenza virus Malaysia B strain produced on MDCK cells
[6] = test system: H5N1 influenza virus produced on EB66 cells

Molecule | LVR (Hepatitis A Virus (HAV)) [log] | log TCID50/ml (Hepatitis A Virus (HAV)) [log TCID50/ml] | viral titration reduction [1] | LVR [2] [log] | log TCID50/ml [2] [log TCID50/ml] | log TCID50/ml [3] | LVR [4] | log TCID50/ml [5] | LVR [6] | log TCID50/ml [6]
O=C1CCO1 [BPL, beta-propiolactone] | 3.8 | 1.5 | about 8 logs | 3.4 | 2.6 | ≦0.8 log TCID50/ml | 2.7 log and 2.8 log and 1.6 log | ≦1.8 log TCID50/ml |  | 
Triton X-100 |  |  |  |  |  |  |  |  | 3.8*** log | 5.2 log TCID50/ml and 5.0 log TCID50/ml
